Results published in patent US20090162366A1.

Assays:
Test in all cases: ELISA on peptide, Ab 10 µg/ml
[1] = biological target: M15 (influenza A virus)
[2] = biological target: NM17 (influenza A virus)
[3] = biological target: NM16 (influenza A virus)
[4] = biological target: NM15 (influenza A virus)
[5] = biological target: M16 (influenza A virus)

B1: N547 (antibody, V domains shown)
VH: EVQLVESGGGLVKPGGSLRLSCAASGFTFSNALMSWVRQAPGKGLEWVGRIKSKTNGGTTDYAAPVKGRFTISRDDSKNTLYLQMNSLKTEDTAVYYCTTHLRYFDWLSDYWGQGTLVTVSS
VL: QSVLTQPPSMSAAPGQKVTISCSGSSSNIGNNYISWYQQLPGTAPKVLIYDNNKRPSGIPDRFSGSKSGTSATLGITGLQTGDEADYYCGSWDSSLSAGVFGTGTKVTVLG
- ELISA(OD450) [1]: 0.07 OD450
- ELISA(OD450) [2]: 1.04 OD450
- ELISA(OD450) [3]: 1.13 OD450
- ELISA(OD450) [4]: 0.09 OD450
- ELISA(OD450) [5]: 0.68 OD450
